Drawing on article PMC6277555, “Short Symmetric-End Antimicrobial Peptides Centered on β-Turn Amino Acids Unit Improve Selectivity and Stability” (Frontiers in Microbiology, 2018), this text covers α-helix and β-strand for two molecules.

Residues, ends and D or L forms follow the SMILES beside them. No end group written: not given here.

This series in a line: Circular dichroism, secondary structure content. It counts as physicochemical. The conditions noted are these: CD, 25°C, content by K2D2.
Where [1] appears, read: 10 mM PBS pH 7.4, 150 μM peptide.

For the molecule `CC[C@H](C)[C@H](N)C(=O)N[C@@H](Cc1c[nH]cn1)C(=O)N[C@@H](CCCCN)C(=O)N[C@@H](Cc1ccccc1)C(=O)N[C@@H](Cc1c[nH]c2ccccc12)C(=O)N[C@@H](CCCNC(=N)N)C(=O)N[C@@H](CS)C(=O)N[C@@H](CCCNC(=N)N)C(=O)N[C@@H](CCCNC(=N)N)C(=O)N[C@@H](CCCNC(=N)N)C(=O)N[C@@H](Cc1ccccc1)C(=O)N[C@@H](CS)C(=O)N[C@@H](CCCNC(=N)N)C(=O)N[C@@H](Cc1c[nH]c2ccccc12)C(=O)N[C@@H](Cc1ccccc1)C(=O)N[C@@H](CCCCN)C(=O)N[C@@H](Cc1c[nH]cn1)C(=O)N[C@H](C(N)=O)[C@@H](C)CC` [PQ] (H-IHKFWRCRRRFCRWFKHI-NH2; N-terminus assumed), the α-helix under setting [1] was determined as 26.91%; the α-helix (30 mM SDS, 150 μM peptide) came to 32.02%; the α-helix (50% TFE, 150 μM peptide) came out at 36.82%. The β-strand was 11.16% under setting [1]; 6.15% (30 mM SDS, 150 μM peptide); 4.28% (50% TFE, 150 μM peptide).
In turn, IHKFWRGGRWFKHI-NH2 [GG] had a α-helix under setting [1] of 1.49%; a α-helix (30 mM SDS, 150 μM peptide) of 11.99%; a α-helix (50% TFE, 150 μM peptide) of 18.98%. The β-strand amounted to 32.19% under setting [1]; 9.42% (30 mM SDS, 150 μM peptide); 11.53% (50% TFE, 150 μM peptide).
